Compound potency records, mixed from different reports. Data source: NIAID ChemDB in PubChem.

Common to all: whole-cell or culture tests; agent: Mycobacterium avium complex

ECn is the concentration giving n% inhibition of infection, replication or growth.

SMILES,strain or isolate,method,endpoint,dose,cell line,value
C[C@@H]1CN(c2c(F)c(N)c3c(=O)c(C(=O)O)cn(C4CC4)c3c2F)C[C@H](C)N1,N-945 (HIV+),-,MIC,-,-,0.5 µg/mL
CC1COc2c(N3CCN(C)CC3)c(F)cc3c(=O)c(C(=O)O)cn1c23,25 isolates,-,MBC90,-,-,>8 µg/mL
CC1(C)N=C(N)N=C(N)N1OCCCOc1cc(Cl)c(Cl)cc1Cl,KT,-,MIC,-,-,≤0.5 µg/mL
NC1CCN(c2c(F)cc3c(=O)c(C(=O)O)cn(C4CC4)c3c2Cl)C1,25 isolates,-,MBC90,-,-,>8 µg/mL
N[C@@H]1CN(c2c(F)cc3c(=O)c(C(=O)O)cn([C@@H]4C[C@@H]4F)c3c2Cl)CC12CC2,101,-,EC50,-,Macrophages,<10 µg/mL
C[C@@H]1CN(c2c(F)c(N)c3c(=O)c(C(=O)O)cn(C4CC4)c3c2F)C[C@H](C)N1,18 strains,-,MIC90,-,-,12.5 µg/mL
CC(=O)NC[C@H]1CN(c2ccc(N3CCN(Cc4ccc([N+](=O)[O-])o4)CC3)c(F)c2)C(=O)O1,31 isolates,-,Geometric mean MIC,-,-,7.823 µg/mL
CCCO/N=C1\[C@H](C)CC(C)(O)[C@H](O[C@@H]2O[C@H](C)C[C@H](N(C)C)[C@H]2O)[C@@H](C)[C@H](O[C@H]2C[C@@](C)(OC)[C@@H](OC(C)=O)[C@H](C)O2)[C@@H](C)C(=O)O[C@H](CC)[C@@](C)(O)[C@H](O)[C@H]1C,20092 (clarithromycin-resistant),-,MIC,-,-,>50 µg/mL
Nc1ccc(S(=O)(=O)c2ccc(N)cc2)cc1,9141,-,MIC,-,-,32 µg/mL
CC(C)N=c1cc2n(-c3ccc(Cl)cc3)c3ccccc3nc-2cc1Nc1ccc(Cl)cc1,211,-,MBC,-,-,64 µg/mL
CC[C@H]1OC(=O)[C@H](C)[C@@H](OC(=O)Cc2ccccc2)[C@H](C)[C@@H](O[C@@H]2O[C@H](C)C[C@H](N(C)C)[C@H]2O)C(C)(O)C[C@@H](C)/C(=N\OCCCOc2ccccc2)[C@H](C)[C@@H](O)[C@]1(C)O,20092 (clarithromycin-resistant),-,MIC,-,-,6.25 µg/mL
CCc1nc2ccc(Cl)cn2c1C(=O)NCc1ccc(N2CCC3(CC2)OC[C@H](C)O3)c(F)c1,Clinical isolate 224,MTT,MIC,-,-,≤0.03 µg/mL
CC1COc2c(N3CCN(C)CC3)c(F)cc3c(=O)c(C(=O)O)cn1c23,18 strains,-,MIC90,-,-,50 µg/mL
CCc1cc(C(N)=S)ccn1,155 strains,agar,inhibition,5 µg/mL,-,7.1%
CC1(C)N=C(N)N=C(N)N1OCCCOc1cc(Cl)c(Cl)cc1Cl,ENMOO3,-,MIC,-,-,4 µg/mL
Cc1ccn2c(C(=O)NCc3ccc4c(c3)CCO4)c(C)nc2c1,Clinical isolate KAL,MTT,MIC,-,-,4 µg/mL
CC[C@H]1OC(=O)[C@H](C)[C@@H](OC2C[C@@](C)(OC)[C@@H](O)[C@H](C)O2)[C@H](C)[C@@H](O[C@@H]2O[C@H](C)C[C@H](N(C)C)[C@H]2O)C(C)(O)C[C@@H](C)/C(=N\OCCCOc2ccccc2)[C@H](C)[C@@H](O)[C@]1(C)O,20092 (clarithromycin-resistant),-,MIC,-,-,3.13 µg/mL
C[C@@H]1CN(c2c(F)c(N)c3c(=O)c(C(=O)O)cn(C4CC4)c3c2F)C[C@H](C)N1,ATCC 15769,-,MBC,-,-,0.5 µg/mL
CC[C@H]1OC(=O)[C@H](C)[C@@H](O[C@H]2C[C@@](C)(OC)[C@@H](O)[C@H](C)O2)[C@H](C)[C@@H](O[C@@H]2O[C@H](C)C[C@H](N(C)C)[C@H]2O)[C@](C)(O)C[C@@H](C)CN(C)[C@H](C)[C@@H](O)[C@]1(C)O,25 isolates,-,MIC90,-,-,>8 µg/mL
CC[C@H]1OC(=O)[C@H](C)[C@@H](OC(C)=O)[C@H](C)[C@@H](O[C@@H]2O[C@H](C)C[C@H](N(C)C)[C@H]2O)C(C)(O)C[C@@H](C)/C(=N\OCCCOc2ccccc2)[C@H](C)[C@@H](O)[C@]1(C)O,20039 (clarithromycin-susceptible),-,MIC,-,-,50 µg/mL
CO[C@H]1/C=C/O[C@@]2(C)Oc3c(C)c(O)c4c(O)c(c5c(c4c3C2=O)NC2(CCN(CC(C)C)CC2)N=5)=NC(=O)/C(C)=C\C=C\[C@H](C)[C@H](O)[C@@H](C)[C@@H](O)[C@@H](C)[C@H](OC(C)=O)[C@@H]1C,N-265 (HIV-),-,MIC,-,-,0.125 µg/mL
N[C@@H]1CONC1=O,97 strains,agar,EC50,-,-,>30 µg/mL
Cc1ccc2nc(C)c(C(=O)NCc3ccc(C(F)(F)F)cc3)n2c1,Clinical isolate 9141,MTT,MIC,-,-,<0.03 µg/mL
CO[C@H]1/C=C/O[C@@]2(C)Oc3c(C)c(O)c4c(=O)c(c5oc6cc(N7CCN(CC(C)C)CC7)cc(=O)c6nc5c4c3=C2O)NC(=O)/C(C)=C\C=C\[C@H](C)[C@H](O)[C@@H](C)[C@@H](O)[C@@H](C)[C@H](OC(C)=O)[C@@H]1C,N-265 (HIV-),-,MIC,-,-,0.0313 µg/mL
C[C@@H]1CN(c2c(F)c(N)c3c(=O)c(C(=O)O)cn(C4CC4)c3c2F)C[C@H](C)N1,25 isolates,-,MBC90,-,-,8 µg/mL
CC[C@H]1OC(=O)[C@H](C)[C@@H](O[C@H]2C[C@@](C)(OC)[C@@H](OC(C)=O)[C@H](C)O2)[C@H](C)[C@@H](O[C@@H]2O[C@H](C)C[C@H](N(C)C)[C@H]2OC(=O)NNCCCCCc2ccccc2)C(C)(O)C[C@@H](C)/C(=N\OCCCC2CCCCC2)[C@H](C)[C@@H](O)[C@]1(C)O,20039 (clarithromycin-susceptible),-,MIC,-,-,1.56 µg/mL
CO[C@H]1/C=C/O[C@@]2(C)Oc3c(C)c(O)c4c(O)c(c5c(c4c3C2=O)NC2(CCN(CC(C)C)CC2)N=5)=NC(=O)/C(C)=C\C=C\[C@H](C)[C@H](O)[C@@H](C)[C@@H](O)[C@@H](C)[C@H](OC(C)=O)[C@@H]1C,168-4,-,MBC,-,-,16 µg/mL

Repeating the final 4 entries:

CO[C@H]1/C=C/O[C@@]2(C)Oc3c(C)c(O)c4c(=O)c(c5oc6cc(N7CCN(CC(C)C)CC7)cc(=O)c6nc5c4c3=C2O)NC(=O)/C(C)=C\C=C\[C@H](C)[C@H](O)[C@@H](C)[C@@H](O)[C@@H](C)[C@H](OC(C)=O)[C@@H]1C ; strain or isolate: N-265 (HIV-) ; endpoint: MIC ; value: 0.0313 µg/mL
C[C@@H]1CN(c2c(F)c(N)c3c(=O)c(C(=O)O)cn(C4CC4)c3c2F)C[C@H](C)N1 ; strain or isolate: 25 isolates ; endpoint: MBC90 ; value: 8 µg/mL
CC[C@H]1OC(=O)[C@H](C)[C@@H](O[C@H]2C[C@@](C)(OC)[C@@H](OC(C)=O)[C@H](C)O2)[C@H](C)[C@@H](O[C@@H]2O[C@H](C)C[C@H](N(C)C)[C@H]2OC(=O)NNCCCCCc2ccccc2)C(C)(O)C[C@@H](C)/C(=N\OCCCC2CCCCC2)[C@H](C)[C@@H](O)[C@]1(C)O ; strain or isolate: 20039 (clarithromycin-susceptible) ; endpoint: MIC ; value: 1.56 µg/mL
CO[C@H]1/C=C/O[C@@]2(C)Oc3c(C)c(O)c4c(O)c(c5c(c4c3C2=O)NC2(CCN(CC(C)C)CC2)N=5)=NC(=O)/C(C)=C\C=C\[C@H](C)[C@H](O)[C@@H](C)[C@@H](O)[C@@H](C)[C@H](OC(C)=O)[C@@H]1C ; strain or isolate: 168-4 ; endpoint: MBC ; value: 16 µg/mL

Neighbouring rows are from separate reports. A number after MIC or MFC names an inhibition level or a share of isolates. Blank or dashed fields: not listed here. Percent inhibition refers to the dose given; in toxicity tests it is the harm to the cells.